Test system: A(H1N1) A/Puerto Rico/8/34
Test: Antiviral MTT test, reduction of infectious viral titre
Assay type: cell-based
Conditions: summary of Table 2, both influenza A strains

## Sodium salt of 2-methylthio-4-pivaloyloxymethyl-6-(2+-amino-2′-carboxyethylthio)-1,2,4triazolo[5,1-c]1,2,4-triazine-7-one hydrate
  Antiviral activity in vitro (in words): significant enhancement of its antiviral activity

From US20190211024A1 (priority 2016, published 2019)
